Results of unrelated studies side by side (data: NIAID ChemDB).

All rows: whole-cell or culture tests; agent: HIV-1; cells: MT-2; read-out: EC50

ECn is the concentration giving n% inhibition of infection, replication or growth. Neighbouring rows are from separate reports. Blank or dashed fields: not listed here.

smiles,strain or isolate,read by,conditions,result
CN(C(=O)[C@H](Cc1cc(F)cc(F)c1)NC(=O)NS(=O)(=O)N[C@@H](Cc1cc(F)cc(F)c1)C(=O)N(C)c1ccc2c(c1)ncn2C)c1ccc2c(c1)ncn2C,NL4-3,luciferase,-,6.15 µM
CC(C)C1=C2C3CC[C@@H]4[C@@]5(C)CC[C@H](OC(=O)CC(C)(C)C(=O)O)C(C)(C)[C@@H]5CC[C@@]4(C)[C@]3(C)CC[C@@]2(NC(=O)Nc2ccccn2)CC1=O,IIIB,RT activity,30% human serum,<0.199 µM
CC(C)C1=C2[C@H]3CC[C@@H]4[C@@]5(C)CC[C@H](OC(=O)[C@H]6C[C@@H](C(=O)O)C6(C)C)C(C)(C)[C@@H]5CC[C@@]4(C)[C@]3(C)CC[C@@]2(CCNC[C@@H]2CCCN2)CC1=O,92HT599,p24 / ELISA,-,<1 µM
CCc1nnc(C(=O)N[C@@]23CC[C@]4(C)C(CCC5[C@@]6(C)CC[C@H](OC(=O)CC(C)(C)C(=O)O)C(C)(C)C6CC[C@]54C)C2=C(C(C)C)C(=O)C3)o1,IIIB,RT activity,30% human serum,<0.199 µM
CC(C)C1=C2[C@H]3CC[C@@H]4[C@@]5(C)CC[C@H](OC(=O)[C@H]6C[C@@H](C(=O)O)C6(C)C)C(C)(C)[C@@H]5CC[C@@]4(C)[C@]3(C)CC[C@@]2(CC(=O)NCc2ccc(Cl)cc2)CC1=O,92HT599,p24 / ELISA,-,<1 µM
Cc1ccc(OCCOc2ncc(-c3cnc(C)c([C@H](OC(C)(C)C)C(=O)O)c3N3CCC(C)(C)CC3)cc2F)cc1,NL4-3,luminescence,-,0.001 µM
CC(C)C1=C2C3CCC4[C@@]5(C)CC[C@H](OC(=O)CC(C)(C)C(=O)O)C(C)(C)C5CC[C@@]4(C)[C@]3(C)CC[C@@]2(NC(=O)Nc2cccnc2)CC1=O,IIIB,RT activity,30% human serum,<0.199 µM
COCCOc1cc(Cl)ccc1C(=O)NC[C@H](O)[C@@]12CC[C@]3(C)[C@H](CC[C@@H]4[C@@]5(C)CC[C@H](OC(=O)[C@H]6C[C@@H](C(=O)O)C6(C)C)C(C)(C)[C@@H]5CC[C@]43C)C1=C(C(C)C)C(=O)C2,92HT599,p24 / ELISA,-,<1 µM
CC(C)C1=C2C3CCC4[C@@]5(C)CC[C@H](OC(=O)CC(C)(C)C(=O)O)C(C)(C)C5CC[C@@]4(C)[C@]3(C)CC[C@@]2(NC(=O)NC2CCC(F)(F)CC2)CC1=O,IIIB,RT activity,30% human serum,<0.199 µM
CC(C)C1=C2[C@H]3CC[C@@H]4[C@@]5(C)CC[C@H](OC(=O)[C@H]6C[C@@H](C(=O)O)C6(C)C)C(C)(C)[C@@H]5CC[C@@]4(C)[C@]3(C)CC[C@@]2(CCNCC2(N)COC2)CC1=O,92HT599,p24 / ELISA,-,<1 µM
CCOCC(C)Oc1ccc(-c2cnc(C)c([C@H](OC(C)(C)C)C(=O)O)c2N2CCC(C)(C)CC2)cn1,NL4-3,luminescence,-,0.0052 µM
COc1ccc(N(C)C(=O)[C@H](Cc2ccccc2)NC(=O)c2cncc(C(=O)N[C@@H](Cc3ccccc3)C(=O)N(C)c3ccc(OC)cc3)n2)cc1,NL4-3,luciferase,-,0.96 µM
Cc1ncc(-c2ccc(NCCOc3cc(F)cc(F)c3)nc2)c(N2CCC(C)(C)CC2)c1[C@H](OC(C)(C)C)C(=O)O,NL4-3,luminescence,-,0.004 µM
CC(C)C1=C2C3CCC4[C@@]5(C)CC[C@H](OC(=O)CC(C)(C)C(=O)O)C(C)(C)C5CC[C@@]4(C)[C@]3(C)CC[C@@]2(NC(=O)NC2(c3ccccc3)CC2)CC1=O,IIIB,RT activity,30% human serum,<0.199 µM
COc1cc(F)ccc1OCCNc1ccc(-c2cnc(C)c([C@H](OC(C)(C)C)C(=O)O)c2N2CCC(C)(C)CC2)cn1,NL4-3,luminescence,-,0.0013 µM
COc1ccc(N(C)C(=O)[C@H](Cc2ccccc2)NC(=O)C2CCCCC2C(=O)N[C@@H](Cc2ccccc2)C(=O)N(C)c2ccc(OC)cc2)cc1,NL4-3,luciferase,-,0.34 µM
Cc1nnc(C(=O)N(C)[C@@]23CC[C@]4(C)C(CCC5[C@@]6(C)CC[C@H](OC(=O)CC(C)(C)C(=O)O)C(C)(C)C6CC[C@]54C)C2=C(C(C)C)C(=O)C3)o1,IIIB,RT activity,30% human serum,<0.199 µM
CCCC1CC(Oc2ccc(-c3cnc(C)c([C@H](OC(C)(C)C)C(=O)O)c3N3CCC(C)(C)CC3)nc2)C1,NL4-3,luminescence,-,0.005 µM
CN[C@@]12CC[C@]3(C)[C@H](CC[C@@H]4[C@@]5(C)CC[C@H](OC(=O)CC(C)(C)C(=O)O)C(C)(C)[C@@H]5CC[C@]43C)C1=C(C(C)C)C(=O)C2,IIIB,RT activity,30% human serum,<0.199 µM
CC(C)C1=C2[C@H]3CC[C@@H]4[C@@]5(C)CC[C@H](OC(=O)[C@H]6C[C@@H](C(=O)O)C6(C)C)C(C)(C)[C@@H]5CC[C@@]4(C)[C@]3(C)CC[C@@]2([C@@H](O)CNC(=O)c2cccnc2)CC1=O,92HT599,p24 / ELISA,-,<1 µM
Cc1ncc(-c2ccc(OCCC(C)F)cn2)c(N2CCC(C)(C)CC2)c1[C@H](OC(C)(C)C)C(=O)O,NL4-3,luminescence,-,0.0019 µM
CC(C)C1=C2[C@H]3CC[C@@H]4[C@@]5(C)CC[C@H](OC(=O)CC(C)(C)C(=O)O)C(C)(C)[C@@H]5CC[C@@]4(C)[C@]3(C)CC[C@@]2(NC(=O)OC(C)(C)C)CC1=O,IIIB,RT activity,30% human serum,<0.199 µM
CC(C)C1=C2[C@H]3CC[C@@H]4[C@@]5(C)CC[C@H](OC(=O)[C@H]6C[C@@H](C(=O)O)C6(C)C)C(C)(C)[C@@H]5CC[C@@]4(C)[C@]3(C)CC[C@@]2([C@@H](O)CNC(=O)c2ccc(Cl)cc2)CC1=O,92HT599,p24 / ELISA,-,<1 µM
CN(C(=O)[C@H](Cc1cc(F)cc(F)c1)NC(=O)Cn1c(=O)n(CC(=O)N[C@@H](Cc2cc(F)cc(F)c2)C(=O)N(C)c2ccc3scnc3c2)c2ccccc21)c1ccc2scnc2c1,NL4-3,luciferase,-,0.01 µM
CC(C)C1=C2[C@H]3CC[C@@H]4[C@@]5(C)CC[C@H](OC(=O)[C@H]6C[C@@H](C(=O)O)C6(C)C)C(C)(C)[C@@H]5CC[C@@]4(C)[C@]3(C)CC[C@@]2(CC(=O)NCc2ccccc2Cl)CC1=O,92HT599,p24 / ELISA,-,<1 µM
CC(C)C1=C2[C@H]3CC[C@@H]4[C@@]5(C)CC[C@H](OC(=O)CC(C)(C)C(=O)O)C(C)(C)[C@@H]5CC[C@@]4(C)[C@]3(C)CC[C@@]2(NC(=O)c2ccccc2F)CC1=O,IIIB,RT activity,30% human serum,<0.199 µM
COc1ccc(N(CCF)C(=O)[C@H](Cc2cc(F)cc(F)c2)NC(=O)CN2c3ccccc3N(CC(=O)N[C@@H](Cc3cc(F)cc(F)c3)C(=O)N(CCF)c3ccc(OC)cc3)S2(=O)=O)cc1,NL4-3,luciferase,-,0.09 µM

The last 2 rows once more:

smiles	strain or isolate	read by	conditions	result
CC(C)C1=C2[C@H]3CC[C@@H]4[C@@]5(C)CC[C@H](OC(=O)CC(C)(C)C(=O)O)C(C)(C)[C@@H]5CC[C@@]4(C)[C@]3(C)CC[C@@]2(NC(=O)c2ccccc2F)CC1=O	IIIB	RT activity	30% human serum	<0.199 µM
COc1ccc(N(CCF)C(=O)[C@H](Cc2cc(F)cc(F)c2)NC(=O)CN2c3ccccc3N(CC(=O)N[C@@H](Cc3cc(F)cc(F)c3)C(=O)N(CCF)c3ccc(OC)cc3)S2(=O)=O)cc1	NL4-3	luciferase	-	0.09 µM